Measured values from several laboratories, pooled; numbers as filed in NIAID ChemDB.

All rows: growth or infection tests; organism: Mycobacterium tuberculosis

An empty or dashed field is not shown.

SMILES	dose	read-out	read by	conditions	strain or isolate	value
CO[C@H]1/C=C/O[C@@]2(C)Oc3c(C)c(O)c4c(O)c(c(/C=N/N5CCCC(O)C5)c(O)c4c3C2=O)NC(=O)/C(C)=C\C=C\[C@H](C)[C@H](O)[C@@H](C)[C@@H](O)[C@@H](C)[C@H](OC(C)=O)[C@@H]1C		EC50			H37Rv	0.5 µg/mL
COc1cc2c(cc1Oc1ccc(OC)c3c1CC1c4c(cc(OC)c(OC)c4-3)CCN1C)CC1c3c(cc(OC)c(OC)c3-2)CCN1C		MIC			H37Rv	6.3 µg/mL
CO[C@H]1/C=C/O[C@@]2(C)Oc3c(C)c(=O)c4c(O)c(c5oc6cccc(O[Si](C)(C)C(C)(C)C)c6nc5c4c3C2=O)NC(=O)/C(C)=C\C=C\[C@H](C)[C@H](O)[C@@H](C)[C@@H](O)[C@@H](C)[C@H](OC(C)=O)[C@@H]1C		MIC			H37Rv	0.035 µg/mL
O=C(NNc1ccccc1[N+](=O)[O-])N1CCN(c2nc(N3CCN(c4ccccc4)CC3)c3ccccc3n2)CC1	6.25 µg/mL	inhibition	BACTEC / fluorescence		H37Rv	0%
Cc1n[nH]c(=O)c2cc3oc4ccccc4c3n12		MIC bound	BACTEC		H37Rv	>12.5 µg/mL
CCCCCOc1ccccc1NC(=O)OCC[N+]1(CCCC)CCCCC1		MIC			My 331/88	62.5 µM
CC/C=C/C/C=C/C/C=C/CCCCCCCC(=O)OC	12.5 µg/mL	inhibition	BACTEC		H37Rv	14%
CO[C@H]1/C=C/O[C@@]2(C)Oc3c(C)c(O)c4c(=O)c(c5oc6cc(N7CCNCC7)cc(=O)c6nc5c4c3=C2O)NC(=O)/C(C)=C\C=C\[C@H](C)[C@H](O)[C@@H](C)[C@@H](O)[C@@H](C)[C@H](OC(C)=O)[C@@H]1C		MIC			H37Rv	0.6 µg/mL
C[CH2][Ge]([CH2]C)[O][Ge]([CH2]C)[CH2]C.C[CH2][Ge]([CH2]C)[O][Ge]([CH2]C)[CH2]C	128 µg/mL	inhibition	BACTEC		H37Rv	100%
CO[C@H]1/C=C/O[C@@]2(C)Oc3c(C)c(O)c4c(O)c(c(/C=N/NCc5ccccc5)c(O)c4c3C2=O)NC(=O)/C(C)=C\C=C\[C@H](C)[C@H](O)[C@@H](C)[C@@H](O)[C@@H](C)[C@H](OC(C)=O)[C@@H]1C		EC50			H37Rv	0.5 µg/mL
CNC(=O)COc1ccc(-c2ccc(C#N)cc2)c(CN2CCN(c3ccccn3)CC2)c1		MIC	broth dilution		H37Rv (ATCC 27294)	64 µg/mL
OCc1c(-c2ccccc2)nc2sc(-c3cccs3)nn12	6.25 µg/mL	inhibition	BACTEC		H37Rv	<90%
CC1COc2c(N3CCN(C)CC3)c(F)cc3c(=O)c(C(=O)O)cn1c23		MIC90			44 isolates (resistant)	2 µg/mL
CC(c1cc(OCC(=O)O)ccc1-c1ccc(C#N)cc1)N1CCN(c2ccccn2)CC1		MIC	broth dilution		H37Rv (ATCC 27294)	32 µg/mL
CO[C@H]1/C=C/O[C@@]2(C)Oc3c(C)c(O)c4c(O)c(c(C=Nc5cccc(C)c5)c(O)c4c3C2=O)NC(=O)/C(C)=C\C=C\[C@H](C)[C@H](O)[C@@H](C)[C@@H](O)[C@@H](C)[C@H](OC(C)=O)[C@@H]1C		EC50			H37Rv	5 µg/mL
CCCc1cc(C(=O)N/N=C/c2ccc([N+](=O)[O-])cc2)c2ccccc2n1		MIC bound	BACTEC		H37Rv	>12.5 µg/mL
c1ccc(-c2nc3sc(C4CCCCC4)nn3c2CC2CCOCC2)cc1	6.25 µg/mL	inhibition	BACTEC		H37Rv	<90%
CCOC(=O)C(=O)Cc1ccc(C(=N)N)cc1		MIC bound	resazurin		H37Rv	>6.25 µg/mL
Cc1ccc(Sc2nnc(N3CCN(c4nc(N5CCN(c6ccccc6)CC5)c5ccccc5n4)CC3)o2)cc1	6.25 µg/mL	inhibition	agar / visual reading		H37Rv	99%
CC(C)[C@@H](C)[C@@H](O)[C@@H](O)[C@@H](C)[C@H]1CC[C@H]2[C@@H]3COC(=O)[C@H]4C[C@H](O)[C@H](O)C[C@]4(C)[C@H]3CC[C@]12C		MIC	BACTEC		H37Rv	≥12.5 µg/mL
CCOCCN1CCN(c2cc(=O)c3nc4c(oc3c2)c2c(=O)c3c(O)c(C)c5c(c34)=C(O)[C@@](C)(O/C=C/[C@H](OC)[C@@H](C)[C@@H](OC(C)=O)[C@H](C)[C@H](O)[C@H](C)[C@@H](O)[C@@H](C)/C=C/C=C(/C)C(=O)N2)O5)CC1		MIC			H37Rv	0.07 µg/mL
CO[C@H]1/C=C/O[C@@]2(C)Oc3c(C)c(O)c4c(O)c(c(C=Nc5ccccc5C)c(O)c4c3C2=O)NC(=O)/C(C)=C\C=C\[C@H](C)[C@H](O)[C@@H](C)[C@@H](O)[C@@H](C)[C@H](OC(C)=O)[C@@H]1C		EC50			H37Rv	5 µg/mL
CCCCCCC[N+]1(CCOC(=O)Nc2ccccc2OCCCCCC)CCCCC1		MIC			My 331/88	4 µM
c1ccc(-c2nc3sc(-c4ccco4)nn3c2CN2CCCCC2)cc1	6.25 µg/mL	inhibition	BACTEC		H37Rv	<90%
CC(C)=CC(=O)O[C@@H]1[C@H]2C(C)C(=O)O[C@H]2[C@@H](O)[C@H](C)[C@H]2C=CC(=O)[C@@]21C		MIC	BACTEC		H37Rv	≥12.5 µg/mL
Brc1ccc(-c2cn3nc(C4CCCCC4)sc3n2)cc1	6.25 µg/mL	inhibition	BACTEC		H37Rv	<90%
CN(C)CC(O)c1ccc2oc3ccccc3c2c1		MIC bound	BACTEC		H37Rv	>12.5 µg/mL
c1ccc(-c2nc3sc(-c4ccco4)nn3c2CC2CCOCC2)cc1	6.25 µg/mL	inhibition	BACTEC		H37Rv	<90%
Cc1ccc(NC(=O)c2ccccc2)cc1Cl		MIC bound	BACTEC		H37Rv	≤12.5 µg/mL
CO/N=C1\CN(c2nc3c(cc2F)c(=O)c(C(=O)O)cn3C2CC2)CC1CN		Mean MIC			250 isolates	5.12 µg/mL
CC(NC(=O)c1ccccc1C(F)(F)F)c1nnc(SCc2ccc(F)cc2)n1Cc1cccnc1		MIC	broth dilution	14 d	H37Rv (ATCC 27294)	>64 µg/mL
CC(=O)c1ccccc1Sc1nnc(N2CCN(c3nc(N4CCN(c5ccccc5)CC4)c4ccccc4n3)CC2)o1	6.25 µg/mL	inhibition	BACTEC / fluorescence		H37Rv	0%
CO[C@H]1/C=C/O[C@@]2(C)Oc3c(C)c(O)c4c(O)c(c(C=NN)c(O)c4c3C2=O)NC(=O)/C(C)=C\C=C\[C@H](C)[C@H](O)[C@@H](C)[C@@H](O)[C@@H](C)[C@H](OC(C)=O)[C@@H]1C		EC50			H37Rv	1 µg/mL
COc1ccc2cc(CN(C(=O)Nc3ccc(F)cc3)C3CCCCCC3)c(=O)[nH]c2c1		MIC	broth dilution	14 d	H37Rv (ATCC 27294)	>64 µg/mL
N#CCCN(CCC#N)c1ccc(/C=C(\NC(=O)c2cc([N+](=O)[O-])ccc2Cl)C(=O)NN)cc1		MIC bound	BACTEC		H37Rv	>12.5 µg/mL
O=C1CSC(c2c(-c3ccccc3)nc3sc(-c4ccco4)nn23)N1c1ccccc1	6.25 µg/mL	inhibition	BACTEC		H37Rv	<90%
CCCCCCCC[N+]1(CCOC(=O)Nc2ccccc2OCCCCCC)CCCCC1		MIC			My 331/88	8 µM
CCOC(=O)COc1ccc(-c2ccc(C#N)cc2)c(CN2CCN(c3cccc(C)n3)CC2)c1		MIC	broth dilution		H37Rv (ATCC 27294)	4 µg/mL
[N-]=[N+]=C1N=NC=C1C(N)=O		MIC bound	BACTEC		H37Rv	>12.5 µg/mL
CC(NC(=O)c1c(F)cccc1F)c1nnc(SCc2ccc(F)cc2)n1Cc1cccnc1		MIC	broth dilution	14 d	H37Rv (ATCC 27294)	>64 µg/mL
CO[C@H]1/C=C/O[C@@]2(C)Oc3c(C)c(O)c4c(O)c(c(/C=N/N(C)C)c(O)c4c3C2=O)NC(=O)/C(C)=C\C=C\[C@H](C)[C@H](O)[C@@H](C)[C@@H](O)[C@@H](C)[C@H](OC(C)=O)[C@@H]1C		EC50			H37Rv	0.1 µg/mL
COc1ccc(C2OC(=O)CN2C(=O)c2ccccc2)cc1		MIC bound	BACTEC		H37Rv	>12.5 µg/mL
CCCCCCOc1ccccc1NC(=O)OCC[N+]1(CC)CCCCC1		MIC			My 331/88	32 µM
CO[C@H]1/C=C/O[C@@]2(C)Oc3c(C)c(O)c4c(O)c(c(/C=N/N5CCN(C)CC5)c(O)c4c3C2=O)NC(=O)/C(C)=C\C=C\[C@H](C)[C@H](O)[C@@H](C)[C@@H](O)[C@@H](C)[C@H](OC(C)=O)[C@@H]1C		MIC			12761	0.1 µg/mL
CN(C)/N=C(\N)c1nnn(C)n1		MIC bound	BACTEC		H37Rv	>12.5 µg/mL
CO[C@H]1/C=C/O[C@@]2(C)Oc3c(C)c(O)c4c(=O)c(c5oc6cc(N(C)CC(C)C)cc(=O)c6nc5c4c3=C2O)NC(=O)/C(C)=C\C=C\[C@H](C)[C@H](O)[C@@H](C)[C@@H](O)[C@@H](C)[C@H](OC(C)=O)[C@@H]1C		MIC			H37Rv	0.008 µg/mL
Cc1c(N=Nc2cc(N=Nc3ccc(N=Nc4ccc(O)c(C(=O)O)c4)cc3)c(N)cc2N)cccc1S(=O)(=O)O		MIC bound	BACTEC		H37Rv	>6.25 µg/mL
O=C(NNc1ccccc1)N1CCN(c2nc(N3CCN(c4ccccc4)CC3)c3ccccc3n2)CC1	6.25 µg/mL	inhibition	BACTEC / fluorescence		H37Rv	0%
CCCCCOc1ccccc1NC(=O)OCC[N+]1(CC)CCCCC1		MIC			My 331/88	1000 µM
CO[C@H]1/C=C/O[C@@]2(C)Oc3c(C)c(O)c4c(O)c(c(/C=N/N5C(C)CN(C)CC5C)c(O)c4c3C2=O)NC(=O)/C(C)=C\C=C\[C@H](C)[C@H](O)[C@@H](C)[C@@H](O)[C@@H](C)[C@H](OC(C)=O)[C@@H]1C		EC50			H37Rv	0.5 µg/mL
CCC(C)N1CCN(c2cc(=O)c3nc4c(oc3c2)c2c(=O)c3c(O)c(C)c5c(c34)=C(O)[C@@](C)(O/C=C/[C@H](OC)[C@@H](C)[C@@H](OC(C)=O)[C@H](C)[C@H](O)[C@H](C)[C@@H](O)[C@@H](C)/C=C/C=C(/C)C(=O)N2)O5)CC1		MIC			H37Rv	0.017 µg/mL
CO[C@H]1/C=C/O[C@@]2(C)Oc3c(C)c(O)c4c(O)c(c(/C=N/c5nccs5)c(O)c4c3C2=O)NC(=O)/C(C)=C\C=C\[C@H](C)[C@H](O)[C@@H](C)[C@@H](O)[C@@H](C)[C@H](OC(C)=O)[C@@H]1C		EC50			H37Rv	5 µg/mL
N#Cc1ccc(NNC(=O)N2CCN(c3nc(N4CCN(c5ccccc5)CC4)c4ccccc4n3)CC2)cc1		MIC	BACTEC / fluorescence		H37Rv	>6.25 µg/mL
OCc1c(-c2ccc(Br)cc2)nc2sc(C3CCCCC3)nn12	6.25 µg/mL	inhibition	BACTEC		H37Rv	<90%
N#Cc1c(=O)c2cc([N+](=O)[O-])ccc2n2c1[nH]c1ccccc12		MIC bound	resazurin		H37Rv	>6.25 µg/mL
CCCCCCOc1ccccc1NC(=O)OCC[N+]1(C)CCCCC1		MIC			My 331/88	32 µM
C1CCNC1.S=C(S)N1CCCC1		MIC			ETA-R	0.8 µg/mL
C=CC[N+]1(CCOC(=O)Nc2ccccc2OCCCCCC)CCCCC1		MIC			My 331/88	32 µM
Cc1onc(-c2ccccc2)c1C(=O)N1CCCN2C(=O)c3ccccc3C21	6.25 µg/mL	inhibition	resazurin		H37Rv	4%
CO[C@H]1/C=C/O[C@@]2(C)Oc3c(C)c(O)c4c(=O)c(c5oc6cc(N7CCN(CCC(C)C)CC7)cc(=O)c6nc5c4c3=C2O)NC(=O)/C(C)=C\C=C\[C@H](C)[C@H](O)[C@@H](C)[C@@H](O)[C@@H](C)[C@H](OC(C)=O)[C@@H]1C		MIC			H37Rv	0.07 µg/mL
Cl.NC(=S)NNC(=O)c1cccnc1		MIC	BACTEC		H37Rv	≥12.5 µg/mL
CCCCCCOc1ccccc1NC(=O)OCC[N+]1(CCCCCC)CCCCC1		MIC			My 331/88	8 µM
CCCNc1nc2c(s1)c1c(O)c3c(O)c(C)c4c(c32)C(=O)[C@@](C)(O/C=C/[C@H](OC)[C@@H](C)[C@@H](OC(C)=O)[C@H](C)[C@H](O)[C@H](C)[C@@H](O)[C@@H](C)/C=C/C=C(/C)C(=O)N1)O4	6.25 µg/mL	inhibition	resazurin		H37Rv	101%
O=Cc1c(-c2ccccc2)nc2sc(C3CCCCC3)nn12	6.25 µg/mL	inhibition	BACTEC		H37Rv	<90%

A second listing of 8 rows from above:

SMILES | dose | read-out | read by | conditions | strain or isolate | value
C[CH2][Ge]([CH2]C)[O][Ge]([CH2]C)[CH2]C.C[CH2][Ge]([CH2]C)[O][Ge]([CH2]C)[CH2]C | 128 µg/mL | inhibition | BACTEC |  | H37Rv | 100%
C1CCNC1.S=C(S)N1CCCC1 |  | MIC |  |  | ETA-R | 0.8 µg/mL
CC(C)[C@@H](C)[C@@H](O)[C@@H](O)[C@@H](C)[C@H]1CC[C@H]2[C@@H]3COC(=O)[C@H]4C[C@H](O)[C@H](O)C[C@]4(C)[C@H]3CC[C@]12C |  | MIC | BACTEC |  | H37Rv | ≥12.5 µg/mL
C=CC[N+]1(CCOC(=O)Nc2ccccc2OCCCCCC)CCCCC1 |  | MIC |  |  | My 331/88 | 32 µM
CO[C@H]1/C=C/O[C@@]2(C)Oc3c(C)c(=O)c4c(O)c(c5oc6cccc(O[Si](C)(C)C(C)(C)C)c6nc5c4c3C2=O)NC(=O)/C(C)=C\C=C\[C@H](C)[C@H](O)[C@@H](C)[C@@H](O)[C@@H](C)[C@H](OC(C)=O)[C@@H]1C |  | MIC |  |  | H37Rv | 0.035 µg/mL
CCCCCCOc1ccccc1NC(=O)OCC[N+]1(CCCCCC)CCCCC1 |  | MIC |  |  | My 331/88 | 8 µM
OCc1c(-c2ccc(Br)cc2)nc2sc(C3CCCCC3)nn12 | 6.25 µg/mL | inhibition | BACTEC |  | H37Rv | <90%
CC(=O)c1ccccc1Sc1nnc(N2CCN(c3nc(N4CCN(c5ccccc5)CC4)c4ccccc4n3)CC2)o1 | 6.25 µg/mL | inhibition | BACTEC / fluorescence |  | H37Rv | 0%

Percent inhibition refers to the dose given; in toxicity tests it is the harm to the cells. A number after MIC or MFC names an inhibition level or a share of isolates. ECn is the concentration giving n% inhibition of infection, replication or growth. MIC bound comes from a single tested concentration. Lines come from different laboratories, so protocols vary.